Several values for one entry are separate records, joined by “and”; a condition that tells them apart may be missing. Equal entries are not always repeated.
Tests used:
S. aureus [1] = assay: Serum shift MIC, S. aureus; details: serum shift procedure, with serum (50% human serum)
Description: (§1) Media and culture conditions. Mueller Hinton broth (MHB), cation adjusted Mueller Hinton broth (CA-MHB), Todd Hewitt Broth (THB) and Brain Heart Infusion broth (BHI) were purchased from Becton Dickinson (Franklin Lakes, NJ). Tryptic soy agar (TSA) plates and TSA with 5% sheep blood plates were purchased from Remel (San Diego, CA). MHB was used to assay all Staphylococcus aureus strains. CA-MHB was used for Staphylococcus epidermidis, Enterococcus faecalis, Enterococcus faecium, Escherichia coil, and Pseudomonas aeruginosa. THB broth supplemented with 1% yeast extract was used for Streptococcus pneumoniae and Streptococcus pyogenes. Staphylococcus. Enterococcus, Escherichia, and Pseudomonas strains were cultured at 37 °C with ambient air. Streptococcus strains were cultured in 37 °C with 5% CO2. Separate conditions for radiolabeled precursor uptake assays are described below.
(§2) Susceptibility testing: Minimum inhibitory concentration (MIC) determinations are performed in triplicate in 96-well round bottom microtiter plates (Corning, Corning NY) as described by the Clinical and Laboratory Standards Institute (CLSI). Serial two-fold dilutions of compounds are added to plates in 50 μL volumes. An additional 50 μL of media containing bacterial cells (1×10^6 CFUs/mL) is then added to each well. Maximum DMSO concentrations are 0.5%. Plates are incubated at 37 °C for at least 18 h before reading the susceptibility result by optical absorbance (OD600) using a BioTek ELx800. The lowest concentration causing ≥90% growth inhibition compared to the untreated control is recorded as the MIC (and also corresponded to the visual MIC). MICs are measured at least twice and the higher value (if different) is recorded herein.
(§3) Serum shift assays: To assess the role of protein binding on compound susceptibility, MIC determinations are performed in triplicate in the presence and absence of 50% human serum. Serial threefold dilutions of 2× compound are generated in MHB or THY (depending on organism) and aliquoted onto 96 well plates with a DMSO limit of 0.5%. Bacteria are adjusted to 1*10^8 CFUs/mL in media, then further diluted 1:100 in media and 100% heat deactivated filter sterilized pooled human serum. Fifty microliters are added to each well of the corresponding plates, and the plates are incubated at 37 °C for ~20 h. The lowest concentration causing ≥90% growth inhibition is recorded as the MIC.

T. cruzi [2] = assay: In vivo acute T. cruzi infection model; details: for Log decrease from vehicle: PO, dose 50, 2 times/day, 5 days of treatment
Experimental: In vivo acute T crud infection model. Swiss Webster mice were infected with 2×10^4 Trypanosoma cruzi trypomastigotes expressing a red-shifted luciferase gene IP on day zero (M. D. Lewis et al. J Biomol Screen 2015; 20(1):36-43). Mice were dosed orally with the test compounds, vehicle, or the control drug (benznidazole) for 5 days (days 7-11 post-infection). The parasites were imaged and quantified using an IVIS imaging system at multiple time points. The substrate D-luciferin potassium salt was injected SC at 150 mg/kg into mice, followed by imaging 10-15 minutes post injection. Images were taken for each set of mice both dorsally and ventrally. Auto-exposure settings are used with a maximum exposure time set to 5 minutes. The signal from these images is combined and standardized by converting the readouts to radiance (photons/sec/cm^2/sr). The decrease in luminescence compared to vehicle control was quantified on day 13 post-infection.

MRSA strain (ATCC 33591) = assay: Time-kill synergy assay with fusidic acid; details: combination of 2541 and fusidic acid compared to the drugs by themselves; 24 hr; 0.25× and 0.125×MIC
Experimental: Methods for Time-kill synergy assays: 2541 and fusidic acid were tested against MRSA strain (ATCC 33591). Combination solutions were made by adding both compounds from DMSO stocks into 5 ml of CA-MHB at 0.25×, and 0.125× the MIC concentration of the compounds respectively. Individual test solutions were also made for each compound at 0.25×, and 0.125× their MIC concentrations. All of the test solutions were made in 12 ml snap cap falcon tubes and were vortexed for a minute to ensure the compound was fully mixed. The test organism was then taken from a fresh overnight culture and added to each tube at a starting OD of 0.04. which is equivalent to 1×10^3 CFU/ml. A no drug control was also started at this time by adding the test organism to 5 ml of CA-MHB that at the same starting concentration. Tubes were incubated at 37 °C on a shaker, 200 uL samples of the test solutions were taken at 0, 1, 3, 5, 7, and 24 hours after the bacteria was added and the OD600 reading was recorded at these times. At each of these time points the 200 ul sample was also plated in serial 10 dilutions on fresh TSA plates. The plates were incubated at 37 °C for 18 hours and then the colonies were counted to determine the CFU/ml at each of the time points.

[3] = tested on: S. aureus (MRSA strain AH4827); assay: Murine thigh infection model (neutropenic, luminescent MRSA)
Description: Murine thigh infection model. Animal studies are approved by the Institutional Animal Care and Use Committee at the University of Washington, Seattle. Female specific pathogen free CD1 mice are obtained from Charles River (Wilmington. MA) weighing 23-27 grams and allowed at least 3 days to acclimate prior to study. Mice had access to food and water ad libitum. Neutropenia is induced by administering cyclophosphamide monohydrate (Sigma Aldrich C7397; St. Louis, MO) via IP injection 4 days (at 150 mg/kg) and 1 day (at 100 mg/kg) prior to infection. Neutropenic status is confirmed by neutrophil count <100 cells/mm^3.
Overnight culture of luminescent MRSA (strain AH4827 is diluted 1:100 in MHB and incubated until reaching mid-log phase (OD600<0.750). The inoculum is prepared by pelleting log-phase culture and re-suspending in sterile dPBS. The culture is adjusted to OD600 of 0.200 and diluted 1:100 in sterile dPBS correlating to an inoculum of ~2*10^5 CFU/100 μL. The mice are infected by an intramuscular injection of 100 μL in the right posterior thigh while under isoflurane gas anesthesia. At 1 h post infection, one control group is sacrificed for determination of initial inoculum (status level of infection) after all mice are imaged by IVIS to confirm infection. Mice are dosed at 2 and 14 h post-infection or 2, 10, and 18 h post-infection with test compounds (below); they received a SC dose of 5 mg/kg ketoprofen at 2 h post-infection for pain management. Mice are imaged by IVIS at 24 h post-infection then sacrificed; the thigh muscle is sterilely removed, weighed, homogenized in 5 mLs dPBS, serially diluted, plated on tryptic soy agar in duplicate, and incubated overnight at 37 °C. Colonies are counted to quantify the bacterial load in CFUs per gram of thigh tissue.
Linezolid as positive control is administered 50 mg/kg PO according to dosing regimen used for experimental compounds.
Test compounds and linezolid control are administered PO (orally) or SC (by subcutaneous injection) in 200 μL of vehicle containing 7% Tween80, 5% DMSO, 3% EtOH in saline.

T. cruzi [4] = assay: T. cruzi growth inhibition assay; details: read-out: In Vitro EC50; anti-T. cruzi activity in vitro (Table 3)
Experimental: Trypanosoma crud growth inhibition assay: The Tulahuen strain of T. cruzi that expresses the Escherichia coli 3-galactosidase gene was utilized (PMID: 8913471). Mammalian stages of parasites were grown at 37 °C on monolayers of murine 3T3 fibroblasts in RPMI 1640 (Biowhittaker Inc., Walkersville, Md.) with 10% fetal bovine serum, penicillin, streptomycin, and glutamine. Growth inhibition assays were performed in 96-well tissue culture plates (Costar, Cambridge, Mass.). First, 3T3 fibroblasts were inoculated at 103/well using RPMI 1640 without phenol red (Biowhittaker Inc.) plus 10% fetal bovine serum and glutamine. The next day, the plates were infected with T. cruzi trypomastigotes at 104/well. After 4 h, drugs were added in serial dilutions to give a final volume of 200 μl/well. The plates were incubated at 37 °C in 5% CO2 atmosphere for 6 days. At this time. CPRG (100 μM final) and Nonidet P-40 (0.1% final) (Sigma Chemical Co., St. Louis, Mo.) were added and the plates were incubated at 37 °C for approximately 4 h. Wells with 0-galactosidase activity turned the media from yellow to red, and this was quantified on an enzyme-linked immunosorbent assay reader at A570.

S. pyogenes [5] = assay: Serum shift MIC, S. pyogenes; details: serum shift procedure, with serum (50% human serum)
Description: as §1, §2, §3

S. aureus [6] = assay: Susceptibility testing (MIC), S. aureus; details: ATCC29213
Description: as §1, §2

S. pyogenes [7] = assay: Susceptibility testing (MIC), S. pyogenes; details: ATCC19615
Description: as §1, §2

T. brucei = assay: Trypanosoma brucei growth inhibition assay; details: read-out: T. brucei EC50; in vitro growth inhibition
Experimental: Trypanosoma brucei growth inhibition assay: Compounds are tested for anti-trypanosomal activity against Trypanosoma brucei cells (BSF 427 parasites) in HMI-9 media containing 10% heat inactivated FBS 100 U mL^−1 penicillin/100 μg mL^−1 streptomycin at 37 °C with 5% CO2. Test compounds are assayed in a 96-well format in triplicate with serial 3-fold dilutions of compound or a pentamidine control against an initial inoculum of 10 000 cells/well and quantified at 48 hours with Alamar Blue (Invitrogen, Waltham, MA).

MRSA = assay: Susceptibility testing (MIC), MRSA
Description: as §1, §2

COc1cc(Cl)c(-c2c(F)ncc3nc(Cc4nc5nc(Cl)ccc5[nH]4)cn23)cc1OC
S. aureus MIC w Serum (S. aureus [1]): 1 µg/mL
Log decrease from vehicle (T. cruzi [2]): 2.94 and 3.05
in vivo efficacy (in words) (T. cruzi [2]; compared to non-fluorinated analogs such as 2503 and 2602): useful in vivo efficacy
decrease in CFU counts (MRSA strain (ATCC 33591)): > 2 log units
Log decrease from vehicle ([3]; PO, dose 25, 3 times/day): 3.6
Log decrease from vehicle ([3]; PO, dose 50, 3 times/day): 4.5
Log decrease from vehicle ([3]; SC, dose 50, 3 times/day): 4.0
in vivo efficacy (in words) ([3]; compared to other non-fluorinated analog compounds): useful in vivo efficacy
EC50 (T. cruzi [4]): 14 nM
S. pyogenes MIC w serum (S. pyogenes [5]): 2 µg/mL

COc1cc(Cl)c(-c2cncc3nc(Cc4nc5nc(Cl)ccc5[nH]4)cn23)cc1OC
S. aureus MIC w Serum (S. aureus [1]): 1.2 µg/mL
Log decrease from vehicle (T. cruzi [2]): 1.21
EC50 (T. cruzi [4]): 7.5 nM
S. pyogenes MIC w serum (S. pyogenes [5]): 9.9 µg/mL

COc1cc(Cl)c(-c2cnc(N3CC(C)NC(C)C3)c3nn(Cc4nc5ccc(Cl)nc5[nH]4)cc23)cc1OC (stereo not drawn)
S. aureus MIC w Serum (S. aureus [1]): 1 µg/mL
S. aureus (ATCC29213) MIC (S. aureus [6]): 0.446 µg/mL
S. pyogenes (ATCC19615) MIC (S. pyogenes [7]): 0.119 µg/mL
EC50 (T. brucei): 0.91 nM
Log decrease from vehicle ([3]; route not given, dose 50, 3 times/day): 1.1
MRSA (ATCC33591) MIC (MRSA): 0.679 µg/mL
S. pyogenes MIC w serum (S. pyogenes [5]): 2 µg/mL

COc1cc(Cl)c(-c2cnc(N3C4CCC3COC4)c3nn(Cc4nc5ccc(Cl)nc5[nH]4)cc23)cc1OC
S. aureus MIC w Serum (S. aureus [1]): 4 µg/mL
S. aureus (ATCC29213) MIC (S. aureus [6]): 0.221 µg/mL
S. pyogenes (ATCC19615) MIC (S. pyogenes [7]): 0.272 µg/mL
EC50 (T. brucei): < 0.91 nM
Log decrease from vehicle ([3]; PO, dose 50, 3 times/day): 0.5
MRSA (ATCC33591) MIC (MRSA): 0.212 µg/mL
S. pyogenes MIC w serum (S. pyogenes [5]): 16 µg/mL

COc1cc(Cl)c(-c2cccc3nc(Cc4nc5nc(Cl)ccc5[nH]4)cn23)cc1OC
S. aureus MIC w Serum (S. aureus [1]): 1 µg/mL
Log decrease from vehicle (T. cruzi [2]): 1.32
Log decrease from vehicle ([3]; PO, dose 75, 2 times/day): 1
Log decrease from vehicle ([3]; SC, dose 25, 3 times/day): 0.5
EC50 (T. cruzi [4]): 11 nM
S. pyogenes MIC w serum (S. pyogenes [5]): 8 µg/mL

COc1cc(Cl)c(-c2cnc(N3CCNC(=O)C3)c3nn(Cc4nc5nc(Cl)ccc5[nH]4)cc23)cc1OC
S. aureus MIC w Serum (S. aureus [1]): 3 µg/mL
S. aureus (ATCC29213) MIC (S. aureus [6]): 0.224 µg/mL
Log decrease from vehicle ([3]; SC, dose 25, 3 times/day): 0.3
MRSA (ATCC33591) MIC (MRSA): 0.0414 µg/mL and 0.0608 µg/mL
S. pyogenes MIC w serum (S. pyogenes [5]): 4 µg/mL

COc1cc(Cl)c(-c2nccc3nc(Cc4nc5nc(Cl)ccc5[nH]4)cn23)cc1OC
S. aureus MIC w Serum (S. aureus [1]): 1.5 µg/mL
Log decrease from vehicle ([3]; PO, dose 50, 3 times/day): 1.1
S. pyogenes MIC w serum (S. pyogenes [5]): 16 µg/mL

COc1cc(Cl)c(-c2cccc3nc(Cc4nc5nc(F)ccc5[nH]4)cn23)cc1OC
S. aureus MIC w Serum (S. aureus [1]): 1 µg/mL
Log decrease from vehicle ([3]; PO, dose 75, 2 times/day): 1
S. pyogenes MIC w serum (S. pyogenes [5]): 16 µg/mL

COc1cc(Cl)c(-c2cnc(N3CCNC(=O)C3)c3nc(Cc4nc5ccc(Cl)nc5[nH]4)cn23)cc1OC
S. aureus MIC w Serum (S. aureus [1]): 1 µg/mL
Log decrease from vehicle ([3]; SC, dose 50, 3 times/day): 0.4
S. pyogenes MIC w serum (S. pyogenes [5]): 1 µg/mL

Source: patent US20260382604A1, “Inhibitors of Type 1 Methionyl-tRNA Synthetase and Methods of Using Them” (published 2026)
